Results of unrelated studies side by side (data: NIAID ChemDB).

All rows: whole-cell or culture tests; organism: HIV-1; cell line: MT-4; endpoint: EC50

Lines come from different laboratories, so protocols vary. ECn: concentration that inhibits the pathogen or its effect by n%. An empty or dashed field is not shown.

{"SMILES": "COc1ccc(C(O)P(=O)(OC[C@H]2O[C@@H](n3ccc(=O)[nH]c3=O)C[C@@H]2N=[N+]=[N-])Oc2ccccc2)cc1", "strain": "IIIB", "method": "cytopathic effect / MTT", "value": ">20 µM"}
{"SMILES": "CCCCCCCCCCc1ccc2c(c1)N(C)[C@@H](C(C)C)C(=O)NC(CO)C2", "strain": "IIIB", "method": "cytopathic effect / MTT", "value": "0.0125 µg/mL"}
{"SMILES": "CCOC(=O)c1cn(Cc2ccccn2)c(Sc2cc(Cl)cc(Cl)c2)c1C(C)C", "strain": "IIIB", "method": "cytopathic effect / MTT", "value": ">200 µM"}
{"SMILES": "CC(C)c1c(CO)cn(Cc2ccncc2)c1Sc1cc(Cl)cc(Cl)c1", "strain": "IIIB", "method": "cytopathic effect / MTT", "value": "0.03 µM"}
{"SMILES": "Nc1nc(N2CCOCC2)c2ncn(CCOCP(=O)(O)O)c2n1", "strain": "IIIB", "method": "cytopathic effect / MTT", "value": "15 µg/mL"}
{"SMILES": "CC(C)(C)OC(=O)N[C@@H](Cc1ccccc1)[C@@H](O)C[C@@H](Cc1ccccc1)C(=O)N[C@H]1c2ccccc2C[C@H]1O", "strain": "IIIB", "method": "p24", "value": "<0.4 µM"}
{"SMILES": "Cc1cn([C@H]2C[C@H](N=[N+]=[N-])[C@@H](COP(=O)(Oc3ccccc3)C(O)c3cccnc3)O2)c(=O)[nH]c1=O", "strain": "IIIB", "method": "cytopathic effect / MTT", "value": "0.04 µM"}
{"SMILES": "C[C@H]1[C@H](CO)C=C[C@@H]1n1cnc2c(N)ncnc21", "value": ">100 µg/mL"}
{"SMILES": "CC(C)c1c(COC(N)=O)cn(Cc2ccncc2)c1Sc1ccccc1", "strain": "IIIB", "method": "cytopathic effect / MTT", "value": "0.7 µM"}
{"SMILES": "O=C1N(Cc2ccc(CO)cc2)[C@H](Cc2ccccc2)[C@H](O)[C@@H](O)[C@@H](Cc2ccccc2)N1Cc1ccc(CO)cc1", "strain": "NL4-3", "mutations": "PR-L63P V82T I84V", "method": "p24", "value": "<3 µM"}
{"SMILES": "CC(C)c1c(CO)cn(Cc2ccncc2)c1Sc1cc(F)cc(F)c1", "strain": "IIIB", "method": "cytopathic effect / MTT", "value": "0.4 µM"}
{"SMILES": "Nc1ncnc2c1ncn2[C@@H]1OC[C@H](/C=C/P(=O)(O)O)[C@H]1F", "strain": "IIIB", "method": "MTT", "value": "34.2 µM"}
{"SMILES": "Cc1cn([C@H]2C[C@H](N=[N+]=[N-])[C@@H](COP(=O)(O)C(O)c3cccnc3)O2)c(=O)[nH]c1=O", "strain": "IIIB", "method": "cytopathic effect / MTT", "value": "2.4 µM"}
{"SMILES": "CC(C)[C@H]1C(=O)N[C@H](CO)Cc2ccccc2N1C", "strain": "IIIB", "method": "cytopathic effect / MTT", "value": "0.3 µg/mL"}
{"SMILES": "Nc1nc(N)c2ncn([C@H]3CO[C@@H](CO)O3)c2n1", "strain": "IIIB", "value": "0.95 µM"}
{"SMILES": "CCCCCCCCCCc1ccc2c(c1)N(C)[C@@H](C(C)C)C(=O)N[C@H](CO)C2", "strain": "IIIB", "method": "cytopathic effect / MTT", "value": "0.0063 µg/mL"}
{"SMILES": "Cc1ccnc2c1NC(=O)c1cccnc1N2C1CC1", "mutations": "RT-Y188L", "method": "cytopathic effect / MTT", "value": ">100 µM"}
{"SMILES": "CC(C)[C@H]1C(=O)N[C@H](CO)CCc2ccccc2N1C", "strain": "IIIB", "method": "cytopathic effect / MTT", "value": ">10 µg/mL"}
{"SMILES": "CC(C)c1nc(CN(C)C(=O)N[C@H](C(=O)N[C@@H](Cc2ccccc2)C[C@H](O)[C@H](Cc2ccccc2)NC(=O)OCc2cncs2)C(C)C)cs1", "strain": "IIIB", "value": "1.34 µg/mL"}
{"SMILES": "Cc1cn([C@H]2C[C@H](N=[N+]=[N-])[C@@H](CO)O2)c(=O)[nH]c1=O", "strain": "IIIB", "method": "cytopathic effect / MTT", "value": "0.01 µM"}
{"SMILES": "CCOC(=O)c1cn(Cc2c(F)cccc2F)c(Sc2cc(Cl)cc(Cl)c2)c1C(C)C", "strain": "IIIB", "method": "cytopathic effect / MTT", "value": ">200 µM"}
{"SMILES": "Cc1cccc(C)c1OP(=O)(OC[C@H]1O[C@@H](n2cc(C)c(=O)[nH]c2=O)C[C@@H]1N=[N+]=[N-])C(O)c1cccnc1", "strain": "IIIB", "method": "cytopathic effect / MTT", "value": "0.01 µM"}
{"SMILES": "Cc1cc(C)cc(Sc2c(C(C)C)c(CO)cn2Cc2ccncc2)c1", "strain": "IIIB", "method": "cytopathic effect / MTT", "value": "0.5 µM"}
{"SMILES": "CC(C)CN(C[C@@H](O)[C@H](Cc1ccccc1)NC(=O)[C@H](CC(N)=O)NC(=O)c1ccc2ccccc2n1)C(=O)NC(C)(C)C", "strain": "NL4-3", "mutations": "PR-L63P V82T I84V", "method": "p24", "value": "<1.5 µM"}
{"SMILES": "Cc1ccccc1CNC(=O)[C@H]1N(C[C@@H](O)C[C@@H](Cc2ccccc2)C(=O)N[C@H]2c3ccccc3OC[C@H]2O)CSC1(C)C", "method": "p24", "value": "<0.25 µM"}
{"SMILES": "CCCCCCCCCCc1ccc2c(c1)N(C)[C@H](C(C)C)C(=O)N[C@H](CO)C2", "strain": "IIIB", "method": "cytopathic effect / MTT", "value": "0.1 µg/mL"}
{"SMILES": "CC(C)CN(C[C@@H](O)[C@H](Cc1ccccc1)NC(=O)O[C@H]1CCOC1)S(=O)(=O)c1ccc(N)cc1", "strain": "NL4-3", "mutations": "PR-M46I V82T I84V 10R 63P", "method": "cytopathic effect / MTT", "value": "0.099 µM"}
{"SMILES": "CCCCCCCCCCc1ccc2c(c1)N(C)C(C(C)C)C(=O)NC(CO)C2", "strain": "IIIB", "method": "cytopathic effect / MTT", "value": "0.32 µg/mL"}
{"SMILES": "CCOC(=O)c1cn(Cc2ccncc2)c(Sc2cc(C)cc(C)c2)c1C(C)C", "strain": "IIIB", "method": "cytopathic effect / MTT", "value": "10 µM"}
{"SMILES": "CCC(C)Nc1nc(N)nc2c1[nH]c[n+]2C[C@@H](C)OCP(=O)(O)O", "strain": "IIIB", "method": "cytopathic effect / MTT", "value": "30 ± 19 µg/mL"}
{"SMILES": "CC(C)c1c(CO)cn(Cc2ccncc2)c1Sc1cccc(Cl)c1", "strain": "IIIB", "method": "cytopathic effect / MTT", "value": "0.1 µM"}
{"SMILES": "Cc1ccc(C(O)P(=O)(OC[C@H]2O[C@@H](n3cc(C)c(=O)[nH]c3=O)C[C@@H]2N=[N+]=[N-])Oc2ccccc2)cc1", "strain": "IIIB", "method": "cytopathic effect / MTT", "value": "0.05 µM"}
{"SMILES": "CC(C)=CCN1Cc2cc(Cl)cc3[nH]c(=S)n(c23)C[C@@H]1C", "mutations": "RT-K70R", "value": "<1.5 µM"}
{"SMILES": "CC(C)c1c(CO)cn(Cc2ccncc2)c1Sc1cc(Cl)cc(Cl)c1", "strain": "IIIB", "method": "cytopathic effect / MTT", "value": "0.003 µM"}
{"SMILES": "CCC(C)Nc1nc(N)nc2c1ncn2CCOCP(=O)(O)O", "strain": "IIIB", "method": "cytopathic effect / MTT", "value": "1.97 µg/mL"}
{"SMILES": "Cc1c(O)cccc1C(=O)N[C@@H](CSc1ccccc1)[C@H](O)CN1C[C@H]2CCCC[C@H]2C[C@H]1C(=O)NC(C)(C)C", "strain": "RF2802 (PR-V82F I84V)", "mutations": "PR-V82F I84V", "method": "cytopathic effect / MTT", "value": "0.068 µM"}
{"SMILES": "Nc1ncnc2c1ncn2[C@@H]1OC[C@H](CCP(=O)(O)O)[C@H]1F", "strain": "IIIB", "method": "MTT", "value": "8.8 µM"}
{"SMILES": "OCc1cn(Cc2ccncc2)c(Sc2ccccc2)c1-c1ccccc1", "strain": "IIIB", "method": "cytopathic effect / MTT", "value": "5 µM"}

Repeating the final 5 entries:

SMILES,strain,mutations,method,value
CC(C)c1c(CO)cn(Cc2ccncc2)c1Sc1cc(Cl)cc(Cl)c1,IIIB,,cytopathic effect / MTT,0.003 µM
CCC(C)Nc1nc(N)nc2c1ncn2CCOCP(=O)(O)O,IIIB,,cytopathic effect / MTT,1.97 µg/mL
Cc1c(O)cccc1C(=O)N[C@@H](CSc1ccccc1)[C@H](O)CN1C[C@H]2CCCC[C@H]2C[C@H]1C(=O)NC(C)(C)C,RF2802 (PR-V82F I84V),PR-V82F I84V,cytopathic effect / MTT,0.068 µM
Nc1ncnc2c1ncn2[C@@H]1OC[C@H](CCP(=O)(O)O)[C@H]1F,IIIB,,MTT,8.8 µM
OCc1cn(Cc2ccncc2)c(Sc2ccccc2)c1-c1ccccc1,IIIB,,cytopathic effect / MTT,5 µM